{"source": "PubChem BioAssay AID624099 (ICCB-Longwood, 2012)", "screen": "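Human genes that papillomavirus E2 requires to repress the HPV18 LCR promoter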 (primary screen)", "system": "human C33A cervical carcinoma cells (HPV-negative) stably expressing BPV1 E2 and an HPV18 LCR luciferase reporter", "reagent": "siRNA pool against human genes, 40 nM", "timing": "72 h", "measured": "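HPV18 LCR reporter light per well, converted to plate-wise z-scores that exclude control wells, and averaged over triplicate plates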", "reading the numbers": "mean z-score and z-score: higher = stronger reporter signal, weaker E2 silencing", "active means": "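Mean z ≥ 2 together with z ≥ 2 in two or more of the three replicates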", "note": "The deposit covers about 21,000 reagents; this is a part drawn at random. Over the whole deposit, 497 (2.4%) are marked active. 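Higher z means weaker E2 silencing; only reporter increases were scored, and knock-downs that hurt cell survival may mask genuine repressor factors.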 Entries without a mark were called inactive. Reagents against one gene are numbered here. No sequences are given here."}
{"target": "GRK3", "reagent": 1, "mean z-score": -1.4, "z-score, replicate A": -1.38, "z-score, replicate B": -1.79, "z-score, replicate C": -1.04}
{"target": "PIM1", "reagent": 1, "mean z-score": -0.35, "z-score, replicate A": -0.34, "z-score, replicate B": -0.13, "z-score, replicate C": -0.6}
{"target": "RPH3AL", "reagent": 1, "mean z-score": -1.91, "z-score, replicate A": -1.28, "z-score, replicate B": -2.2, "z-score, replicate C": -2.25}
{"target": "NR3C1", "reagent": 1, "mean z-score": 1.61, "z-score, replicate A": 1.73, "z-score, replicate B": 1.61, "z-score, replicate C": 1.49}
{"target": "NR3C1", "reagent": 2, "mean z-score": -0.25, "z-score, replicate A": -0.51, "z-score, replicate B": -0.08, "z-score, replicate C": -0.17}
{"target": "CYP4F22", "reagent": 1, "mean z-score": -0.22, "z-score, replicate A": -0.52, "z-score, replicate B": -0.41, "z-score, replicate C": 0.27}

Laid out differently: results already given.
target	reagent	mean z-score	z-score, replicate A	z-score, replicate B	z-score, replicate C
RPH3AL	1	-1.91	-1.28	-2.2	-2.25
NR3C1	1	1.61	1.73	1.61	1.49

Further reagents follow.
{"target": "BCKDHB", "reagent": 1, "mean z-score": 1, "z-score, replicate A": 1.13, "z-score, replicate B": 0.95, "z-score, replicate C": 0.91}
{"target": "PAF1", "reagent": 1, "mean z-score": -0.7, "z-score, replicate A": -0.48, "z-score, replicate B": -0.89, "z-score, replicate C": -0.73}
{"target": "RCBTB2", "reagent": 1, "mean z-score": 0.91, "z-score, replicate A": 1, "z-score, replicate B": 1.19, "z-score, replicate C": 0.54}
{"target": "GAD1", "reagent": 1, "mean z-score": 0.83, "z-score, replicate A": 1.32, "z-score, replicate B": 0.83, "z-score, replicate C": 0.34}
{"target": "TSPAN5", "reagent": 1, "mean z-score": -0.29, "z-score, replicate A": -0.15, "z-score, replicate B": -0.47, "z-score, replicate C": -0.23}
{"target": "DEFB106A", "reagent": 1, "mean z-score": -1.12, "z-score, replicate A": -1.08, "z-score, replicate B": -1.14, "z-score, replicate C": -1.14}
